Substitutions are numbered along the chain they refer to.
T1: NetB (necrotic enteritis toxin B) (Clostridium perfringens)
T1 chain: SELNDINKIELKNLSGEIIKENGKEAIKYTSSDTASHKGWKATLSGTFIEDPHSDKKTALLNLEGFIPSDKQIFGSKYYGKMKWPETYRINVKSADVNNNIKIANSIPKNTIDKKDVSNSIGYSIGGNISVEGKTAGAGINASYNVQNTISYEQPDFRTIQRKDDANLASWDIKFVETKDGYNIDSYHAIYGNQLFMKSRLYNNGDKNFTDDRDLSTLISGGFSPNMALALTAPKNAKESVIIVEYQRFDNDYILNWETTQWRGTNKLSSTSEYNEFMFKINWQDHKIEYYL

B1: NBX0541 (VHH)
VHH: QVQLQQSGGGSVQTGGSLALSCAASGTISIFDPMGWYRQAPGKQRELVASISEGSTNYANSVKGRFTISRDNAKKTVSLQMNSLEPADTAVYYCRLSRYYNSNIYWGQGTQVTVSS
B2: NBX0543 (VHH)
VHH: B1 VHH with Q6E, A23V, I28L, I30L, E53G, G54L, N72D, R95H
B3: NBX0547 (VHH)
VHH: B1 VHH with Q6E, I30L, P33S, S52T
B4: NBX0304 (VHH)
VHH: QVQLQESGGGLVQTGDSLRLSCTASGGTFSSYTMGWYRQAPGKGREFVGSITWNSEVTYYADSVKGRFTISRDNAKNMMNLQMNSLKPEDTAVYYCAAGRAGSGFTSWGQGTQVTVSS
B5: NBX0545 (VHH)
VHH: QVQLQESGGGLVQAGGSLRLSCAASRTTFRVGTMAWFRQDPGKQRELVAGITSGGSTNYADSVKGRFTISRDNAKNTIYLQMNSLKPEDTGIYVCFANIVDRPVSWGQGTQVTVSS
B6: NBX0502 (VHH)
VHH: QVQLQESGGGLVQAGGSLRLSCAASGRTFSIYAMGWFRQAPGKEREFVAVINRGGGTTTYADSVKGRFTISRDNTKNTVSLQMNSLKPDDTAVYYCAADRVTDTYYYLNPESYDYWGQGTQVTVSS
B7: NBX0504 (VHH)
VHH: B6 VHH with G54S
B8: NBX0305 (VHH)
VHH: QVQLQESGGGLVQPGGSLRLSCTASGFTLDKYAVGWFRQAPGKEREGVSCISSIDDSTDYVDSVKGRFTISRDNAKNAVYLQMNSLKPEDTAVYNCMTIPLPYGSTCDIPSRSDLLAINYWGKGTLVTVSS
B9: NBX0540 (VHH)
VHH: QVQLQESGGGLVQPGGSLRVSCAASGLTFSDYAMGWFRQAPGQEREFVARISLTAASTLYADSVRGRFTISRDNAKNTVYLQMNSLRPDDTAVYYCAAQGRILRGRGLFKASDYDYWGQGTQVTVSS
B10: NBX0542 (VHH)
VHH: QVQLQESGGGLVQAGGSLRLSCAASRNIYGINVIAWYRQAPGKQREMVARSANGGTTRYADSVKGRFTISRDNVKNIVYLQMSSLKPEDTAAYYCKAELYTLQHNYEYWGQGTQVTVSS
B11: NBX0539 (VHH)
VHH: QVQLQESGGGLVQAGGSLRLSCVASGSGSRIGFMAWHRQTPGRQRELVAVINRTGATRYADSVKDRFTISRDNAKNTVYLQMNDLKPDDTALYYCFASVVDAGTYWGQGTQVTVSS
B12: NBX0508 (VHH)
VHH: B11 VHH with G32N, F33Y, T57A, R58N, D61R, L92I, V99Y, V100L, D101G, T104A
B13: NBX0510 (VHH)
VHH: QVQLQESGGGLVQAGGSLRLSCVASGSGSRINYMAWHRQTPGRQRELVAVINRTGAAKYADSVKDRFTVSRDNAENTVYLQMNDLKPDDTAVYYCWASYLGAGTYWGQGIQVTVSS
B14: NBX0546 (VHH)
VHH: QVQLQQSGGGAVQAGGSLTLSCVASGSGSRIGLMAWYRQTPGRQRELVAVIKGTGTTRYADSVKDRFTISRDNAKNTMYLQMNDLKPDDTALYYCFASVLGAGTYWGQGTQVTVSS
B15: NBX0511 (VHH)
VHH: QVQLQESGGGLVQPGGSLRLSCAASGFTFSRNYMSWVRQAPGKGLEWVGSIYSDDSTNYAPSVKGRFTISRDNAANTLYLQMNSLKSEDTAVYYCSKEGGLRGQGTQVTVSS
B16: NBX0319 (VHH)
VHH: QVQLQESGGGLVQAGGSLRLSCAASASIISIRVMGWYRQAPGKQRELVATMSRGGTINYADSVRGRFTISRDNAKSTVFLEMNSLKPEDTAVYYCTALLDSYYWGQGTQVTVSS
B17: NBX0373 (VHH)
VHH: B16 VHH with I29M, G55N, T96A
B18: NBX0362 (VHH)
VHH: B16 VHH with A23V, A24V, A26G, I29M, G55N, T96A
B19: NBX0370 (VHH)
VHH: B16 VHH with A23V, A24V, A26G, I29M, F79Y, E81Q, T96A
B20: NBX0364 (VHH)
VHH: B16 VHH with A23V, A24V, A26G, I29M, F79Y, E81Q
B21: NBX0365 (VHH)
VHH: B16 VHH with A26G, I29F, F79Y, E81Q
B22: NBX0366 (VHH)
VHH: B16 VHH with A23V, A24V, A26G, I29M, S76N, F79Y, E81Q, N83T
B23: NBX0376 (VHH)
VHH: B16 VHH with F79Y, E81Q, N83T, T96A
B24: NBX0371 (VHH)
VHH: B16 VHH with F79Y, E81Q
B25: NBX0375 (VHH)
VHH: B16 VHH with A23V, A24V, A26G, I29M, F79Y, E81Q, A91D, T96A
B26: NBX0379 (VHH)
VHH: B16 VHH with A23V, A24V, A26G, I29M, G55N, F79Y, E81Q, T96A
B27: NBX0372 (VHH)
VHH: B16 VHH with F79Y, E81Q, T96A
B28: NBX0378 (VHH)
VHH: B16 VHH with I29M, G55N, F79Y, E81Q, T96A
B29: NBX0544 (VHH)
VHH: QVQLQESGGGLVQAGGSLRLSCAASGRVLSINAMGWYRQAPGKRREMVARITNGGSTNYAGSVKGRFTISRENTKNTMYLQMNSLKPEDTAVYYCLAEERPYYGGPLEYWGQGTQVTVSQ
B30: NBX0505 (VHH)
VHH: QVQLQESGGGLVQAGGSLRLSCAASGMSFSLGTIYWYRQAPGKQREFVAFITNADTTMYANSVKGRFTISRDNGKNTVFLLMNNLKPEDSAVYYCNTATSWGQGTQVTVSS
B31: NBX0322 (VHH)
VHH: QVQLQESGGGLVQAGGSLRLSCQGSGRTFSTYAMGWYRQAPGKEREFVAAITRGGNTIYADSVKGRFTISRVSDKNTVYLQMSSLKPEDTAVYYCAADRIIVPRDPMDYWGKGTLVTVSS
B32: NBX0509 (VHH)
VHH: QVQLQESGGGLVQAGGSLRLSCAASGRTFSTYTVGWFRQAPGKEREFVASITWNGGTILYADSVKGRFTISRDNAKNTVLLQMNSLKPEDTAVYYCVMGAAGQGWRYWGQGTQVTVSS
B33: NBX0501 (VHH)
VHH: QVQLQESGGGLVQAGGSLRLSCAASGSIFSINVMGWYRQAPGKQRDLVALITSGGSTTYADSVKGRFTISRDNAKNTVYLQMNSLKPEDTAVYYCNAAQSRTSWLFPDEYDYWGQGTQVTVSS

Biological target: T1, NetB (necrotic enteritis toxin B)
Experiment: cell-based or functional assay

Binder	IC50 < 50 nM, NetB cytotoxicity on LMH cells (LDH)	IC50 < 1 µM, NetB cytotoxicity on LMH cells (LDH)
B1	≥ 50 nM	< 1000 nM
B2	≥ 50 nM	< 1000 nM
B3	≥ 50 nM	< 1000 nM
B4	≥ 50 nM	≥ 1000 nM
B5	< 50 nM	< 1000 nM
B6	≥ 50 nM	≥ 1000 nM
B7	≥ 50 nM	≥ 1000 nM
B8	< 50 nM	< 1000 nM
B9	< 50 nM	< 1000 nM
B10	< 50 nM	< 1000 nM
B11	< 50 nM	< 1000 nM
B12	≥ 50 nM	< 1000 nM
B13	< 50 nM	< 1000 nM
B14	< 50 nM	< 1000 nM
B15	< 50 nM	< 1000 nM
B16	< 50 nM	< 1000 nM
B17	≥ 50 nM	< 1000 nM

Binder	IC50 < 50 nM, NetB cytotoxicity on LMH cells (LDH)	IC50 < 1 µM, NetB cytotoxicity on LMH cells (LDH)
B18	≥ 50 nM	< 1000 nM
B19	≥ 50 nM	< 1000 nM
B20	< 50 nM	< 1000 nM
B21	< 50 nM	< 1000 nM
B22	< 50 nM	< 1000 nM
B23	≥ 50 nM	< 1000 nM
B24	< 50 nM	< 1000 nM
B25	< 50 nM	< 1000 nM
B26	≥ 50 nM	< 1000 nM
B27	≥ 50 nM	< 1000 nM
B28	≥ 50 nM	< 1000 nM
B29	< 50 nM	< 1000 nM
B30	< 50 nM	< 1000 nM
B31	≥ 50 nM	< 1000 nM
B32	≥ 50 nM	≥ 1000 nM
B33	< 50 nM	< 1000 nM

Reference: patent publication US20210269512A1 (NOVOBIND LIVESTOCK THERAPEUTICS, published 2021)
